# Kdimer by position in the HIV-1 leader RNA

Values reported by Ye et al. 2022 (doi:10.1038/s41594-022-00746-2).

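Randomly mutated transcripts starting with one, two or three G (1G, 2G, 3G), capped or uncapped, were folded for 30 min at 37 °C. Monomer and dimer bands were cut from native gels after folding in high salt (300 mM KCl, 5 mM MgCl2) or low salt (40 mM KCl, 0.1 mM MgCl2). Kdimer compares mutation frequencies in monomer and dimer, corrected for sequencing errors.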

The 5' region of HIV-1 NL4-3 RNA (positions 1-437):
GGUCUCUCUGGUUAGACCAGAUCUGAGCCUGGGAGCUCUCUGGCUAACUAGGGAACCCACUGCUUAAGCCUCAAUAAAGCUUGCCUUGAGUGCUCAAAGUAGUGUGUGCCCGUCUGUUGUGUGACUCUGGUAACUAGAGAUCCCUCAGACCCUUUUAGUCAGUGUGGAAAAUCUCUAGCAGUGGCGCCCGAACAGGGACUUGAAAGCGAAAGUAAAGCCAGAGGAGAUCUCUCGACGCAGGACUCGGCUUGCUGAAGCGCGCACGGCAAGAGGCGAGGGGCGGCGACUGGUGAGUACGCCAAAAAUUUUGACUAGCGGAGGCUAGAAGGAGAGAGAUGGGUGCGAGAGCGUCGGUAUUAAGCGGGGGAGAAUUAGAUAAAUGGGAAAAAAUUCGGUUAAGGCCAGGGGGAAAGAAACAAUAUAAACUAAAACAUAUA

Scale: median log2 Kdimer over the changes at a position; positive = changes inhibit dimerization, negative = changes enhance it.
One numbering serves 1G, 2G and 3G.
A position is written with its base.

A385 gave 3G uncapped high-salt -0.05; 3G capped high-salt -0.03.
A386 gave 3G uncapped high-salt -0.04; 3G capped high-salt 0.07.
A387 gave 3G uncapped high-salt 0.05; 3G capped high-salt 0.06.
A388 gave 3G uncapped high-salt 0.09; 3G capped high-salt 0.03.
A389 gave 3G uncapped high-salt -0.02; 3G capped high-salt -0.01.
A390 gave 3G uncapped high-salt 0.06; 3G capped high-salt 0.02.
U391 gave 3G uncapped high-salt 0.12; 3G capped high-salt 0.03.
U392 gave 3G uncapped high-salt 0.04; 3G capped high-salt 0.06.
C393 gave 3G uncapped high-salt 0.00; 3G capped high-salt 0.06.
G394 gave 3G uncapped high-salt 0.08; 3G capped high-salt 0.07.
G395 gave 3G uncapped high-salt -0.01; 3G capped high-salt -0.03.
U396 gave 3G uncapped high-salt -0.07; 3G capped high-salt -0.03.
U397 gave 3G uncapped high-salt -0.04; 3G capped high-salt 0.04.
A398 gave 3G uncapped high-salt 0.06; 3G capped high-salt 0.00.
A399 gave 3G uncapped high-salt 0.08; 3G capped high-salt 0.13.
G400 gave 3G uncapped high-salt 0.05; 3G capped high-salt -0.01.
G401 gave 3G uncapped high-salt 0.01; 3G capped high-salt -0.09.
C402 gave 3G uncapped high-salt -0.04; 3G capped high-salt -0.11.
C403 gave 3G uncapped high-salt -0.16; 3G capped high-salt 0.00.
A404 gave 3G uncapped high-salt 0.06; 3G capped high-salt 0.01.
G405 gave 3G uncapped high-salt -0.15; 3G capped high-salt -0.05.
G406 gave 3G uncapped high-salt -0.09; 3G capped high-salt 0.00.
G407 gave 3G uncapped high-salt 0.03; 3G capped high-salt 0.03.
G408 gave 3G uncapped high-salt -0.01; 3G capped high-salt -0.02.
G409 gave 3G uncapped high-salt 0.00; 3G capped high-salt 0.09.
A410 gave 3G uncapped high-salt 0.04; 3G capped high-salt 0.05.
A411 gave 3G uncapped high-salt 0.00; 3G capped high-salt 0.00.
A412 gave 3G uncapped high-salt 0.04; 3G capped high-salt 0.06.
G413 gave 3G uncapped high-salt 0.01; 3G capped high-salt 0.13.
A414 gave 3G uncapped high-salt 0.08; 3G capped high-salt -0.02.
A415 gave 3G uncapped high-salt 0.03; 3G capped high-salt 0.07.
A416 gave 3G uncapped high-salt 0.09; 3G capped high-salt 0.04.
C417 gave 3G uncapped high-salt 0.11; 3G capped high-salt -0.10.
A418 gave 3G uncapped high-salt 0.14; 3G capped high-salt 0.13.
A419 gave 3G uncapped high-salt 0.08; 3G capped high-salt -0.01.
U420 gave 3G uncapped high-salt 0.01; 3G capped high-salt 0.02.
A421 gave 3G uncapped high-salt 0.05; 3G capped high-salt 0.19.
U422 gave 3G uncapped high-salt 0.00; 3G capped high-salt 0.00.
A423 gave 3G uncapped high-salt 0.11; 3G capped high-salt 0.12.

The opening 4 entries, copied out:

- A385: 3G uncapped high-salt -0.05; 3G capped high-salt -0.03
- A386: 3G uncapped high-salt -0.04; 3G capped high-salt 0.07
- A387: 3G uncapped high-salt 0.05; 3G capped high-salt 0.06
- A388: 3G uncapped high-salt 0.09; 3G capped high-salt 0.03